{"source": "patent US20090062198A1", "about": "“Maurotoxin, PI1 and HSTX1 derivatives” (published 2009)", "target": "mammalian voltage-gated Kv1.2 channel (mammalian)", "data": [{"substance": "[Abu9,19,29,34]-MTX (peptide)", "values": [{"measurement": "blocking activity (pharmacological assays)", "value": 42, "unit": "nM"}]}]}
